A mixed list of measured activities; the numbers were collected in NIAID ChemDB.

All rows: whole-cell or culture tests; organism: Rhinovirus; cell line: HeLa; endpoint: EC50

Conditions beyond the fields shown may differ between rows. ECn: concentration that inhibits the pathogen or its effect by n%.

Cc1cc(OCCCc2ccc(Cl)nn2)cc(C)c1-c1noc(C(F)(F)F)n1 ; strain: serotypes 3 4 5 9 16 18 38 66 75 67 ; read by: cytopathic effect ; value: 0.03 µg/mL
COCc1cc(CCCOc2c(Cl)cc(-c3noc(C)n3)cc2Cl)on1 ; strain: Serotype 89 ; read by: cytopathic effect ; value: 0.005 µg/mL
CS(=O)(=O)c1ccc(NCc2ccc(Cl)c(Cl)c2)nc1 ; strain: TYPE 89 ; read by: cytopathic effect ; value: 1.3 µg/mL
CS(=O)(=O)c1ccc(Oc2ccc(C(=O)c3ccccc3)cc2)nc1 ; strain: TYPE 4 ; read by: cytopathic effect ; value: 3.1 µg/mL
CCS(=O)(=O)c1ccc(NCc2ccc(Cl)c(Cl)c2)nc1 ; strain: TYPE 1A ; read by: cytopathic effect ; value: >10 µg/mL
CCSc1ccc(Oc2ccc(C(=O)c3ccccc3)cc2)nc1C#N ; strain: TYPE 64 ; read by: cytopathic effect ; value: >10 µg/mL
Cc1cc(-c2noc(C(F)(F)F)n2)cc(C)c1OCCCc1ccc(C(C)(F)F)nn1 ; strain: serotypes 3 4 5 9 16 18 38 66 75 67 ; read by: cytopathic effect ; value: 0.02 µg/mL
CS(=O)(=O)c1cccnc1Oc1ccc(C(=O)c2ccccc2)cc1 ; strain: TYPE 2 ; read by: cytopathic effect ; value: >10 µg/mL
CS(=O)(=O)c1ccc(Cc2ccc(Cl)c(Cl)c2)nc1 ; strain: TYPE 8 ; read by: cytopathic effect ; value: >10 µg/mL
Cc1ccc(CCCOc2cc(C)c(-c3noc(C(F)(F)F)n3)c(C)c2)nn1 ; strain: serotypes 3 4 5 9 16 18 38 66 75 67 ; read by: cytopathic effect ; value: 0.036 µg/mL
CS(=O)(=O)c1ccc(NCCc2ccc(Cl)c(Cl)c2)nc1 ; strain: TYPE 1A ; read by: cytopathic effect ; value: <1.3 µg/mL
Cc1cc(OCCCc2ccc(C(C)F)nn2)cc(C)c1-c1noc(C(F)F)n1 ; strain: serotypes 3 4 5 9 16 18 38 66 75 67 ; read by: cytopathic effect ; value: 0.02 µg/mL
Cc1nc(-c2cc(C)c(OCCCc3cc(C4CC4)no3)c(C)c2)no1 ; strain: Serotype 89 ; read by: cytopathic effect ; value: 0.007 µg/mL
Cc1cc(CCCCCOc2c(Cl)cc(C3=NCCO3)cc2Cl)on1 ; strain: TYPE 10 ; read by: plaque count ; value: 0.18 µg/mL
CS(=O)c1ccc(Cc2ccc(S(C)(=O)=O)cn2)cc1 ; strain: TYPE 64 ; read by: cytopathic effect ; value: >10 µg/mL
CCc1nc(-c2cc(C)c(OCCCc3cc(COC)no3)c(C)c2)no1 ; strain: Serotype 86 ; read by: cytopathic effect ; value: 0.025 µg/mL

Repeating the first 2 entries:

{"smiles": "Cc1cc(OCCCc2ccc(Cl)nn2)cc(C)c1-c1noc(C(F)(F)F)n1", "strain": "serotypes 3 4 5 9 16 18 38 66 75 67", "read by": "cytopathic effect", "value": "0.03 µg/mL"}
{"smiles": "COCc1cc(CCCOc2c(Cl)cc(-c3noc(C)n3)cc2Cl)on1", "strain": "Serotype 89", "read by": "cytopathic effect", "value": "0.005 µg/mL"}